A mixed list of measured activities; the numbers were collected in NIAID ChemDB.

Common to all: tests in culture; agent: Hepatitis C virus

a–b is a range or a potency band. ECn is the concentration giving n% inhibition of infection, replication or growth. Rows are shuffled and stem from different studies. Blank or dashed fields: not listed here.

compound,strain or isolate,read by,cell line,measure,mutations,setting,value
CNC(=O)c1c(-c2ccc(F)cc2)oc2cc(N(C)S(C)(=O)=O)c(OCc3nccs3)cc12,,replicon,Huh7,EC50,,,<1 µM
O=C(O)c1sc(-c2ccc(-c3cc4ncccn4n3)cc2)cc1N(C(=O)c1ccc(Cl)cc1F)C1CCOC1,1b,luciferase / replicon,,EC50,,,0.01–0.05 µM
COC(=O)N[C@H](C(=O)N1CCCC1c1ncc(-c2ccc(-c3ccc(-c4cnc([C@@H]5CC(C)CN5C(=O)[C@@H](NC(=O)CO)C(C)C)[nH]4)cc3)cc2)[nH]1)C(C)C,1a,luciferase,Lunet,EC50,M28T,,0.0025 µM
CS(=O)(=O)N(CCO)c1cccc(-c2ccc3nc(NCc4ccc(S(N)(=O)=O)cc4)nc(NCC(F)F)c3n2)c1,,replicon,,EC50,,,<0.1 µM
Fc1ccc(Cl)cc1-c1nc(Nc2ccncc2I)c2cccnc2n1,,replicon,Huh7,EC50,,,0.48 µM
CNC(=O)c1c(-c2ccc(F)cc2)oc2cc(NC)c(OC(C)C)cc12,,replicon,Huh7,EC50,,,<1 µM
S=C(Nc1cccc(OCCCCCOc2ccc(-c3ccccc3)cc2)c1)N1CCOCC1,,reporter gene / fluorescence,Ava5-EG(delta4AB)SEAP,EC50,,,0.001–1 µM
C=C[C@@H]1C[C@]1(NC(=O)[C@@H]1C[C@@H](Oc2cc(-c3ccccc3)nc3cc(OC)ccc23)CN1C(=O)[C@@H](NC(=O)N(CCC(F)(F)F)CC1CC1)C(C)(C)C)C(=O)NS(=O)(=O)C1CC1,1b,replicon,Huh7,EC50,,,<0.5 µM
COCCNc1nc(NCc2ccc(F)cc2)nc2ccc(-c3ccc(F)cc3)nc12,,replicon,,EC50,,,<0.1 µM
CNC(=O)c1c(-c2ccc(F)cc2)oc2cc(N(C(C)C)S(C)(=O)=O)c(OC)cc12,,replicon,Huh7,EC50,,,<1 µM
Nc1ccc2c(Nc3ccncc3)nc(-c3cccc(Cl)c3)nc2n1,,replicon,Huh7,EC50,,,1.8 µM
CC(C)C(=O)Nc1ccc(-c2ccc3nc(N)nc(N4CCS(=O)(=O)CC4)c3n2)cc1,,replicon,Huh7,EC50,,,<0.3 µM
CNC(=O)c1c(-c2ccc(F)cc2)oc2cc(N(C)S(C)(=O)=O)c(OCC#N)cc12,,replicon,Huh7,EC50,,,<1 µM
CC(C)N(C(=O)c1ccc(Cl)cc1Cl)c1cc(-c2ccc(-c3cn4ccccc4n3)cc2)sc1C(=O)O,1a,luciferase / replicon,,EC50,,,0.1–0.5 µM
NC(=S)Nc1cccc(OCCCCCOc2ccccc2-c2ccc(Cl)cc2)c1,,reporter gene / fluorescence,Ava5-EG(delta4AB)SEAP,EC50,,,0.001–1 µM
C=C[C@@H]1C[C@]1(NC(=O)[C@@H]1C[C@@H](Oc2cc(-c3ccccc3)nc3cc(OC)ccc23)CN1C(=O)[C@@H](NC(=O)OC(C)(C)C)C(C)(C)C)C(=O)NS(=O)(=O)c1ccc(F)cc1,1b,replicon,Huh7,EC50,,,<0.5 µM
CCOc1nc(NCc2ccc(F)cc2)nc2ccc(-c3ccc(F)c(Cl)c3)nc12,,replicon,,EC50,,,<0.1 µM
COC(=O)c1cnccc1Nc1nc(-c2cc(Cl)ccc2F)nc2ncccc12,,replicon,Huh7,EC50,,,19 µM
O=C(N[C@@H](C(=O)N1CCC[C@H]1c1ncc(-c2ccc(-c3ccc(-c4cnc([C@@H]5CCCN5C(=O)[C@H](NC(=O)C5CC5)c5ccccc5)s4)cc3)cc2)s1)c1ccccc1)C1CC1,genotype 1b,luciferase / reporter gene,Huh7.5,EC50,P58L,,0.000564 µM
CNC(=O)c1cnccc1Nc1nc(-c2cc(Cl)ccc2F)nc2ncccc12,,replicon,Huh7,EC50,,,12 µM
CCCCn1c(=O)c2cc(OC)ccc2c2cc(C(O)(C(F)(F)F)C(F)(F)F)c3c(c21)OCO3,2a,PCR,Huh7.5.1,EC50,,,4.9 µM
Nc1nc(O[C@@H]2CCOC2)c2nc(-c3ccc(N4CCCC4=O)cc3)ccc2n1,,replicon,Huh7,EC50,,,<0.3 µM
NC(=S)Nc1cccc(OCCCOc2ccccc2-c2ccccc2)c1,,reporter gene / fluorescence,Ava5-EG(delta4AB)SEAP,EC50,,,0.001–1 µM
C[C@@]1(F)[C@H](O)[C@@H](CO)O[C@H]1n1ccc(=O)[nH]c1=O,S282T mutant,replicon / PCR,,EC90,,,>100 µM
COc1c(-c2ccc3cc(NS(C)(=O)=O)ccc3c2)cc(-n2ccc(=O)[nH]c2=O)cc1C(C)(C)C,genotype 1b Con1,luciferase,Huh7,EC50,S556G,,0.0065 µM
Cc1ccc(-c2ccc(OCCCCCOc3cccc(NC(N)=S)c3)cc2)cc1,,reporter gene / fluorescence,Ava5-EG(delta4AB)SEAP,EC50,,,0.001–1 µM
CCOc1nc(N)nc2c1ncn2[C@@H]1O[C@@H]2COP(=O)(OC(C)C)O[C@H]2[C@@]1(C)F,2a,replicon,,EC50,,43 d,0.85 µM
CC(C)N(C(=O)c1ccc(Cl)cc1Cl)c1cc(-c2ccc(-c3cc4nccc(N)n4n3)cc2)sc1C(=O)O,1b,luciferase / replicon,,EC50,,,<0.005 µM
C=C[C@@H]1C[C@]1(NC(=O)[C@@H]1C[C@@H](Oc2cc(-c3ccccc3)nc3cc(OC)ccc23)CN1C(=O)[C@@H](NC(=O)OC(C)(C)C)C(C)(C)C)C(=O)NS(=O)(=O)CC,1b,replicon,Huh7,EC50,,,<0.5 µM
CCOc1nc(NCc2ccc(F)cc2)nc2ccc(-c3ccc4[nH]ncc4c3)nc12,,replicon,,EC50,,,<0.1 µM
CNC(=O)c1c(-c2ccc(F)cc2)oc2cc(N(CS(C)(=O)=O)c3nccs3)c(OC(C)C)cc12,,replicon,Huh7,EC50,,,<1 µM
CC(O)CNC(=O)c1cnccc1Nc1nc(-c2cc(Cl)ccc2F)nc2nc(NCCN(C)C)ccc12,,replicon,Huh7,EC50,,,>10 µM
NC(=O)COc1ccc2c(c1)S(=O)(=O)N=C(c1c(O)c3cc(F)ccc3n(CCC3CC3)c1=O)N2,1a 33783,replicon,,EC50,,,0.7 µM
Cc1ccc(C(=O)N(c2cc(-c3ccc(-c4cc5ncccn5n4)cc3)sc2C(=O)O)C(C)C)c(C)c1,1b,replicon / ELISA,,EC50,,,0.1–0.5 µM
NC(=S)Nc1cccc(OCCCCOc2cccc3ccccc23)c1,,reporter gene / fluorescence,Ava5-EG(delta4AB)SEAP,EC50,,,0.001–1 µM
Fc1ccc(Br)cc1-c1nc(Nc2ccncc2)c2cccnc2n1,,replicon,Huh7,EC50,,,0.23 µM
CC(C)N(C(=O)c1ccc(C(F)(F)F)cc1F)c1cc(-c2ccc(-c3cc4ncccn4n3)cc2)sc1C(=O)O,1b,luciferase / replicon,,EC50,,,0.05–0.1 µM
CC[C@H](C)[C@H](NC(=O)OC(C)(C)C)C(=O)N1C[C@H](Oc2cc(-c3ccccc3)nc3cc(OC)ccc23)C[C@H]1C(=O)NC1(C(=O)NS(=O)(=O)C2CC2)CC1,1b,replicon,Huh7,EC50,,,<5 µM
CCOc1nc(N)nc2ccc(-c3cccc(NS(=O)(=O)C(C)C)c3)nc12,,replicon,Huh7,EC50,,,<0.3 µM
C=C[C@@H]1C[C@]1(NC(=O)[C@@H]1C[C@@H](Oc2cc(-c3ccccc3)nc3cc(OC)ccc23)CN1C(=O)[C@@H](NC(=O)OC(C)(C)C)C(C)(C)C)C(=O)NS(=O)(=O)c1ccc(Cl)cc1,1b,replicon,Huh7,EC50,,,<0.5 µM
CCOc1nc(NCCS(N)(=O)=O)nc2ccc(-c3ccc(F)cc3)nc12,,replicon,,EC50,,,<0.1 µM
CCN(c1cc2oc(-c3ccc(F)cc3)c(C(=O)NC)c2cc1F)S(C)(=O)=O,,replicon,Huh7,EC50,,,<10 µM
CN(CCS(C)(=O)=O)c1nc(NCc2ccc(F)cc2)nc2ccc(-c3ccc(F)cc3)nc12,,replicon,,EC50,,,<0.1 µM
C=C[C@@H]1C[C@]1(NC(=O)[C@@H]1C[C@@H](Oc2cc(-c3ccccc3)nc3cc(OC)ccc23)CN1C(=O)[C@@H](NC(=O)OCc1ccccc1)C(C)(C)C)C(=O)NS(=O)(=O)C1CC1,1b,replicon,Huh7,EC50,,,<0.05 µM

5 of the rows above, restated:

{"compound": "Fc1ccc(Cl)cc1-c1nc(Nc2ccncc2I)c2cccnc2n1", "read by": "replicon", "cell line": "Huh7", "measure": "EC50", "value": "0.48 µM"}
{"compound": "Nc1nc(O[C@@H]2CCOC2)c2nc(-c3ccc(N4CCCC4=O)cc3)ccc2n1", "read by": "replicon", "cell line": "Huh7", "measure": "EC50", "value": "<0.3 µM"}
{"compound": "CC(C)C(=O)Nc1ccc(-c2ccc3nc(N)nc(N4CCS(=O)(=O)CC4)c3n2)cc1", "read by": "replicon", "cell line": "Huh7", "measure": "EC50", "value": "<0.3 µM"}
{"compound": "NC(=O)COc1ccc2c(c1)S(=O)(=O)N=C(c1c(O)c3cc(F)ccc3n(CCC3CC3)c1=O)N2", "strain or isolate": "1a 33783", "read by": "replicon", "measure": "EC50", "value": "0.7 µM"}
{"compound": "CNC(=O)c1c(-c2ccc(F)cc2)oc2cc(NC)c(OC(C)C)cc12", "read by": "replicon", "cell line": "Huh7", "measure": "EC50", "value": "<1 µM"}